Tested on: Mycobacterium tuberculosis
Test: Binding affinity to Mycobacterium tuberculosis MmpL3 assessed as association constant by SPR analysis

Row | SMILES | Ka [M⁻¹ s⁻¹]
1 | O=C(CNc1cccc(OC(F)(F)F)c1)NC12CC3CC(CC(C3)C1)C2 | 1580
2 | C[C@@H]1[C@H]2C[C@@H](C[C@H]1NC(=O)CNc1cccc(Cl)c1)C2(C)C | 1520

Reference: ChEMBL document CHEMBL5316284, “Structural Determinants of Indole-2-carboxamides: Identification of Lead Acetamides with Pan Antimycobacterial Activity” (J Med Chem, 2023)
